Measured values from several laboratories, pooled; numbers as filed in NIAID ChemDB.

All rows: growth or infection tests; organism: HIV-1; read-out: EC50

ECn: concentration that inhibits the pathogen or its effect by n%. Lines come from different laboratories, so protocols vary. Blank or dashed fields: not listed here. Two numbers with a dash give a range or band.

smiles | strain | mutations | cell line | method | conditions | value
CC(C)=CCOc1cc(NC(=S)c2ccsc2C)ccc1Cl | Diphenyl sulfone-resistant (RT-Y181C) | RT-Y181C | CEM + CEM-SS | cytopathic effect / XTT | - | 0.2 µM
CC(C)C1=C2[C@H]3CC[C@@H]4[C@@]5(C)CC[C@H](OC(=O)[C@H]6C[C@@H](C(=O)O)C6(C)C)C(C)(C)[C@@H]5CC[C@@]4(C)[C@]3(C)CC[C@@]2([C@@H](O)CNCc2ccc(N3CCS(=O)(=O)CC3)cc2)CC1=O | 92HT599 | - | MT-2 | p24 / ELISA | - | <1 µM
C[C@@H]1CCO[C@H]2Cn3cc(C(=O)NCc4ccc(F)cc4F)c(=O)c(O)c3C(=O)N12 | NL4-3 | R263K | CBMC | RT activity | - | 0.0021 µM
COCc1nc(Nc2ccc(C#N)cc2)nc(Nc2c(C)cc(/C=C(\C)C#N)cc2C)c1C(=O)NCc1ccncc1 | K103N+Y101C | - | MT4 CMV-EGFP | - | - | 0.0851 µM
Cc1ncc(-c2ccc(OCC3=CCCC3)cn2)c(N2CCC(C)(C)CC2)c1[C@H](OC(C)(C)C)C(=O)O | NL4-3 | - | MT-2 | luminescence | - | 0.0028 µM
C[C@H]1CO[C@@H]2Cn3cc(C(=O)NCc4ccc(F)cc4F)c(=O)c(O)c3C(=O)N12 | - | - | HOS | luciferase | - | <0.004 µM
CC(=O)N[C@@H](CCCNC(=O)N(C)N=O)C(=O)NCc1ccccc1 | IIIB | - | CEM-IW + CEM | cytopathic effect / XTT | - | >100 µM
CCC(=O)c1ccc(F)c([C@@H]2C[C@@H]2NC(=O)Nc2ccc(C#N)cn2)c1O | LAI | NNRTI-resistant (RT E138A) | TZM-bl | β-galactosidase / luminescence | - | 0.00132 µM
CNC(=O)NCCCC[C@H](NC(C)=O)C(=O)NCc1ccccc1 | IIIB | - | CEM-IW + CEM | cytopathic effect / XTT | - | >100 µM
COc1ccc2c(c1)C1=C(C2)C(=O)N[C@H]2CCCC[C@@H]2N1 | - | - | OM-10.1 | p24 | - | 0.2 µM
Cc1ncc(-c2ccc(OC[C@](C)(O)c3ccccc3)cn2)c(N2CCC(C)(C)CC2)c1[C@H](OC(C)(C)C)C(=O)O | NL4-3 | - | MT-2 | luminescence | - | 0.009 µM
CC(=O)N[C@@H](CCCCN(Cc1ccccc1)C(=O)N(CCCl)N=O)C(=O)NCc1ccccc1 | IIIB | - | CEM-IW + CEM | cytopathic effect / XTT | - | >100 µM
Cc1ccc(C(=O)NC(C)(C)CNCC[C@@]23CC[C@]4(C)[C@H](CC[C@@H]5[C@@]6(C)CC[C@H](OC(=O)[C@H]7C[C@@H](C(=O)O)C7(C)C)C(C)(C)[C@@H]6CC[C@]54C)C2=C(C(C)C)C(=O)C3)cc1 | 92HT599 | - | MT-2 | p24 / ELISA | - | <1 µM
O=C(COc1ccc(Cl)cc1C(=O)c1ccco1)Nc1ccc2cn[nH]c2c1 | HXB2 | RT-K103N | HeLa + HELA CD4+ | β-galactosidase | - | <0.01 µM
COCc1nc(Nc2ccc(C#N)cc2)nc(Nc2c(C)cc(/C=C/C#N)cc2C)c1C(=O)NCCN(C)C | L1001+K103N | - | MT4 CMV-EGFP | - | - | 0.155 µM
Cc1cc2[nH]cnc2cc1NC(=O)COc1ccc(Cl)cc1C(=O)c1cc(F)cc(C(F)(F)F)c1 | HXB2 | RT-K103N L100I | HeLa + HELA CD4+ | β-galactosidase | - | <0.01 µM
Cc1ccc(-c2ccc3c(c2)C=C(C(=O)Nc2ccc(C[N+](C)(C)C4CCOCC4)cc2)CCC3)cc1 | COT1 CLADE C | - | PBMC | p24 | - | <1 µM
Cc1cc(S(N)(=O)=O)ccc1NC(=O)COc1ccc(Cl)cc1C(=O)c1cccc(C#N)n1 | HXB2 | RT-K103N | HeLa + HELA CD4+ | β-galactosidase | - | <0.01 µM
CC(C)C1=C2[C@H]3CC[C@@H]4[C@@]5(C)CC[C@H](OC(=O)[C@H]6C[C@@H](C(=O)O)C6(C)C)C(C)(C)[C@@H]5CC[C@@]4(C)[C@]3(C)CC[C@@]2(CCNC(=O)c2cccc(Cl)c2)CC1=O | 92HT599 | - | MT-2 | p24 / ELISA | - | <1 µM
Cc1ncc(-c2ccc(N(C)CCOc3ccc(Cl)cc3Cl)nc2)c(N2CCC(C)(C)CC2)c1[C@H](OC(C)(C)C)C(=O)O | NL4-3 | - | MT-2 | luminescence | - | 0.0025 µM
Cc1cc(C#N)cc(C(=O)c2cc(Cl)ccc2OCC(=O)Nc2cnc(S(N)(=O)=O)cc2C)c1 | HXB2 (RT-K103N G190A) Recombinant | RT-K103N G190A | HeLa + HELA CD4+ | β-galactosidase | - | <0.01 µM
Cc1cccc(C(=O)NC(C)(C)CNC[C@H](O)[C@@]23CC[C@]4(C)[C@H](CC[C@@H]5[C@@]6(C)CC[C@H](OC(=O)[C@H]7C[C@@H](C(=O)O)C7(C)C)C(C)(C)[C@@H]6CC[C@]54C)C2=C(C(C)C)C(=O)C3)n1 | 92HT599 | - | MT-2 | p24 / ELISA | - | <1 µM
CCCCCN1CCNC(=O)C2=C1c1cc(OC)ccc1CC2 | - | - | OM-10.1 | p24 | - | 1.1 µM
CC(C)C1=C2[C@H]3CC[C@@H]4[C@@]5(C)CC[C@H](OC(=O)[C@H]6C[C@@H](C(=O)O)C6(C)C)C(C)(C)[C@@H]5CC[C@@]4(C)[C@]3(C)CC[C@@]2([C@@H](O)CNC(=O)C2(NC(=O)c3ccc(Cl)cc3)COC2)CC1=O | 92HT599 | - | MT-2 | p24 / ELISA | - | <1 µM
CC(=O)N[C@@H](CCCN(Cc1ccccc1)C(=O)N(CCCl)N=O)C(=O)NCc1ccccc1 | IIIB | - | CEM-IW + CEM | cytopathic effect / XTT | - | >100 µM
Cc1cc(S(N)(=O)=O)ccc1NC(=O)COc1ccc(Cl)cc1C(=O)c1cccc(C#N)c1 | HXB2 | RT-K101E | HeLa + HELA CD4+ | β-galactosidase | - | <0.01 µM
Nc1c(C(=O)NCc2ccc(F)cc2F)c(=O)n(O)c2ncc(CCS(=O)(=O)c3ccccc3)cc12 | - | AGT (GGGAGT) | HOS | luciferase | - | <0.001 µM
COCc1nc(Nc2ccc(C#N)cc2)nc(Nc2c(C)cc(/C=C/C#N)cc2C)c1C(=O)N(C)OC | MDR | - | MT4 CMV-EGFP | - | - | 0.537 µM
CC(C)C1=C2[C@H]3CC[C@@H]4[C@@]5(C)CC[C@H](OC(=O)[C@H]6C[C@@H](C(=O)O)C6(C)C)C(C)(C)[C@@H]5CC[C@@]4(C)[C@]3(C)CC[C@@]2([C@@H](O)CNCc2ccc(Cl)cc2)CC1=O | 92HT599 | - | MT-2 | p24 / ELISA | - | <1 µM
Cc1cc(S(N)(=O)=O)ccc1NC(=O)COc1ccc(Cl)cc1C(=O)c1cc(F)cc(F)c1 | HXB2 | RT-V106I Y181C | HeLa + HELA CD4+ | β-galactosidase | - | 0.011–0.1 µM
Cc1ccc(C)n1-c1ccc(C(=O)O)c(O)c1 | 93TH051 X4R5 CLADE E | - | PBMC/5.25M7 | luciferase / cell fusion | - | 7.46 µM
CC(C)C1=C2[C@H]3CC[C@@H]4[C@@]5(C)CC[C@H](OC(=O)[C@H]6C[C@@H](C(=O)O)C6(C)C)C(C)(C)[C@@H]5CC[C@@]4(C)[C@]3(C)CC[C@@]2([C@@H](O)CN(CCN(C)C)C(=O)c2cc(C(C)C)[nH]n2)CC1=O | 92HT599 | - | MT-2 | p24 / ELISA | - | <1 µM
COc1cccc2[nH]cc(C(=O)C(=O)N3CCN(C(=O)c4ccccc4)C[C@H]3C)c12 | JR-FL | - | HeLa-CD4/CCR5 | single cycle | - | 0.0006 µM
CCCc1cc(=O)oc2c3c(c4c(c12)OC(C)(C)CC4)O[C@@H](C)[C@H](C)[C@@H]3O | NL4-3 | RT-K103N | CEM + CEM-SS | XTT | - | 3.8 µM
COCc1nc(Nc2ccc(C#N)cc2)nc(Nc2c(C)cc(/C=C/C#N)cc2C)c1C(=O)NCCNC(C)=O | MDR | - | MT4 CMV-EGFP | - | - | 0.209 µM
CC(=O)OCCCc1cnc2c(c1)c(N)c(C(=O)NCc1ccc(F)cc1F)c(=O)n2O | - | AGC (GGGAGC) | HOS | luciferase | - | <0.003 µM
COCc1nc(Nc2ccc(C#N)cc2)nc(Nc2c(C)cc(/C=C/C#N)cc2C)c1C(=O)N1CCN(CCO)CC1 | IIIB | - | MT4 CMV-EGFP | - | - | 0.0372 µM
COc1ccc2sc3c(c2c1)N(Cc1cccc([N+](=O)[O-])c1)CCNC3=O | - | - | OM-10.1 | p24 | - | <0.04 µM
CC(C)CN(C[C@@H](O)[C@H](Cc1ccccc1)NC(=O)O[C@H]1CO[C@H]2OCC[C@H]21)S(=O)(=O)c1ccc2c(c1)OCO2 | MDR/C | - | PHA-PBM | p24 | - | 0.0027 µM
CSc1ccc2oc3c(c2c1)N(Cc1ccccc1)CCNC3=O | - | - | OM-10.1 | p24 | - | <0.08 µM
C=CCN(N=O)C(=O)N(CCCC[C@H](NC(C)=O)C(=O)NCc1ccccc1)Cc1ccccc1 | IIIB | - | CEM-IW + CEM | cytopathic effect / XTT | - | >100 µM
COCCNC(=O)c1c(COC)nc(Nc2ccc(C#N)cc2)nc1Nc1c(C)cc(/C=C(\C)C#N)cc1C | IIIB | - | MT4 CMV-EGFP | - | - | 0.00331 µM
COC(C)C(C)Oc1ncc(-c2cnc(C)c([C@H](OC(C)(C)C)C(=O)O)c2N2CCC(C)(C)CC2)cc1F | NL4-3 | - | MT-2 | luminescence | - | 0.0034 µM
CC[C@]1(CO)O[C@@H](n2cnc3c(N)ncnc32)C[C@@H]1O | - | (delta)Env | HOS | luciferase | - | 0.221 µM
Cc1nnc(-c2cccc(-c3cccc(C(=O)N4CCCCC4)c3)c2)o1 | - | - | TZM-bl | luminescence | pseudotyped | >30 µM
COc1cc(Cl)ccc1C(=O)NC[C@H](O)[C@@]12CC[C@]3(C)[C@H](CC[C@@H]4[C@@]5(C)CC[C@H](OC(=O)[C@H]6C[C@@H](C(=O)O)C6(C)C)C(C)(C)[C@@H]5CC[C@]43C)C1=C(C(C)C)C(=O)C2 | 92HT599 | - | MT-2 | p24 / ELISA | - | <1 µM
CC(C)=CCOc1cc(NC(=S)c2ccoc2C)ccc1Cl | 4XAZT+Y181C | - | CEM + CEM-SS | cytopathic effect / XTT | - | 0.2 µM
Cc1ncc(-c2ccc(OCCOCc3ccccc3)cn2)c(N2CCC(C)(C)CC2)c1[C@H](OC(C)(C)C)C(=O)O | NL4-3 | - | MT-2 | luminescence | - | 0.0011 µM
Cc1cc(C#N)cc(C)c1Oc1nc(Nc2ccc(C#N)cc2)nc(N)c1Br | MJ4 C | N348I | HEK293T | luciferase | - | 2.05 nM
Cc1cc(OCCCS(N)(=O)=O)ccc1NC(=O)COc1ccc(Cl)cc1C(=O)c1cc(F)cc(C(F)(F)F)c1 | HXB2 | RT-G190E | HeLa + HELA CD4+ | β-galactosidase | - | <0.01 µM
Cc1ncc(-c2ccc(OCCC3(O)CCC3)cn2)c(N2CCC(C)(C)CC2)c1[C@H](OC(C)(C)C)C(=O)O | NL4-3 | - | MT-2 | luminescence | - | 0.0223 µM
COCc1nc(Nc2ccc(C#N)cc2)nc(Nc2c(C)cc(/C=C/C#N)cc2C)c1C(=O)NCc1cccs1 | K103N + Y181C | - | MT4 CMV-EGFP | - | - | 0.0741 µM
Cc1cc(S(N)(=O)=O)ccc1NC(=O)COc1ccc(Cl)cc1C(=O)c1cc(F)cc(C(F)(F)F)c1 | - | K103N | HELA MAGI | β-galactosidase | 25% human serum | 5.8 µM
COc1ccc(CN2CCNC(=O)C3=C2c2cc(OC)ccc2CC3)cc1 | - | - | OM-10.1 | p24 | - | 0.4 µM
Nc1c(C(=O)NCc2ccc(F)cc2F)c(=O)n(O)c2ncc(CCS(=O)(=O)CCN3CCOCC3)cc12 | - | AGC (GGGAGC) | HOS | luciferase | - | 0.0854 µM
Cc1ncc(-c2ccc(NCCOc3ccc(Cl)cc3F)cn2)c(N2CCC(C)(C)CC2)c1[C@H](OC(C)(C)C)C(=O)O | NL4-3 | - | MT-2 | luminescence | - | 0.0063 µM
CC(C)C1=C2[C@H]3CC[C@@H]4[C@@]5(C)CC[C@H](OC(=O)[C@H]6C[C@@H](C(=O)O)C6(C)C)C(C)(C)[C@@H]5CC[C@@]4(C)[C@]3(C)CC[C@@]2(CC(=O)NCC(C)(C)NC(=O)CN2CCCCC2)CC1=O | 92HT599 | - | MT-2 | p24 / ELISA | - | <1 µM

5 of the rows above, restated:

smiles,strain,mutations,cell line,method,conditions,value
Cc1ccc(C(=O)NC(C)(C)CNCC[C@@]23CC[C@]4(C)[C@H](CC[C@@H]5[C@@]6(C)CC[C@H](OC(=O)[C@H]7C[C@@H](C(=O)O)C7(C)C)C(C)(C)[C@@H]6CC[C@]54C)C2=C(C(C)C)C(=O)C3)cc1,92HT599,-,MT-2,p24 / ELISA,-,<1 µM
CC(C)C1=C2[C@H]3CC[C@@H]4[C@@]5(C)CC[C@H](OC(=O)[C@H]6C[C@@H](C(=O)O)C6(C)C)C(C)(C)[C@@H]5CC[C@@]4(C)[C@]3(C)CC[C@@]2([C@@H](O)CN(CCN(C)C)C(=O)c2cc(C(C)C)[nH]n2)CC1=O,92HT599,-,MT-2,p24 / ELISA,-,<1 µM
COc1cccc2[nH]cc(C(=O)C(=O)N3CCN(C(=O)c4ccccc4)C[C@H]3C)c12,JR-FL,-,HeLa-CD4/CCR5,single cycle,-,0.0006 µM
C[C@H]1CO[C@@H]2Cn3cc(C(=O)NCc4ccc(F)cc4F)c(=O)c(O)c3C(=O)N12,-,-,HOS,luciferase,-,<0.004 µM
Cc1ncc(-c2ccc(OCC3=CCCC3)cn2)c(N2CCC(C)(C)CC2)c1[C@H](OC(C)(C)C)C(=O)O,NL4-3,-,MT-2,luminescence,-,0.0028 µM